Anti-infective test results gathered from many reports (values: NIAID ChemDB through PubChem).

Shared fields: whole-cell or culture tests; species: Mycobacterium avium intracellulare; read-out: MIC

An empty or dashed field is not shown. Lines come from different laboratories, so protocols vary.

{"compound": "CC[C@H]1OC(=O)[C@H](C)[C@@H](OC2C[C@@](C)(OC)[C@@H](O)[C@H](C)O2)[C@H](C)[C@@H](O[C@@H]2O[C@H](C)C[C@H](N(C)C)[C@H]2O)C(C)(OC)C[C@@H](C)/C(=N\\OCCCOc2ccccc2)[C@H](C)[C@@H](O)[C@]1(C)O", "strain": "20066", "result": "3.13 µg/mL"}
{"compound": "CC(=O)NC[C@H]1CN(c2ccc(N3CCN(c4ccc([N+](=O)[O-])s4)CC3)c(F)c2)C(=O)O1", "strain": "ATCC35761", "result": "<0.12 µg/mL"}
{"compound": "CCCO/N=C1\\[C@H](C)CC(C)(O)[C@H](O[C@@H]2O[C@H](C)C[C@H](N(C)C)[C@H]2O)[C@@H](C)[C@H](OC2C[C@@](C)(OC)[C@@H](O)[C@H](C)O2)[C@@H](C)C(=O)O[C@H](CC)[C@@](C)(O)[C@H](O)[C@H]1C", "strain": "20066", "result": "3.13 µg/mL"}
{"compound": "CCS/C(N)=N/N=C/c1ccc2cc(Cl)ccc2n1", "strain": "CNCT D39/93", "result": "32 µM"}
{"compound": "N/C(=N\\N=C\\c1cc2ccccc2o1)c1ccccn1", "result": ">16 µg/mL"}
{"compound": "OCCN1CCN(CCC=C2c3ccccc3Sc3ccc(Cl)cc32)CC1", "strain": "R 1631", "result": "12.5 µg/mL"}
{"compound": "CO[C@H]1/C=C/O[C@@]2(C)Oc3c(C)c(O)c4c(=O)c(c5oc6cc(N7CCN(CC(C)C)CC7)cc(=O)c6nc5c4c3=C2O)NC(=O)/C(C)=C\\C=C\\[C@H](C)[C@H](O)[C@@H](C)[C@@H](O)[C@@H](C)[C@H](OC(C)=O)[C@@H]1C", "strain": "N-752 (HIV-)", "result": "≤0.0125 µg/mL"}
{"compound": "Clc1ccc2c(c1)nc1cc(Nc3ccccc3)c(=NC3CCCCC3)cc-1n2-c1ccccc1", "strain": "97002", "result": "0.5 µg/mL"}
{"compound": "CCCCCCCCCCCCCCCCO/N=C1\\[C@H](C)CC(C)(O)[C@H](O[C@@H]2O[C@H](C)C[C@H](N(C)C)[C@H]2O)[C@@H](C)[C@H](OC2C[C@@](C)(OC)[C@@H](O)[C@H](C)O2)[C@@H](C)C(=O)O[C@H](CC)[C@@](C)(O)[C@H](O)[C@H]1C", "strain": "20066", "result": ">50 µg/mL"}
{"compound": "COc1ccc2c(c1)N(C[C@H](C)CN(C)C)c1ccccc1S2", "strain": "R 1631", "result": "50 µg/mL"}
{"compound": "NC[C@H]1O[C@H](O[C@H]2[C@H](O)[C@@H](O[C@H]3O[C@H](CO)[C@@H](O)[C@H](N)[C@H]3O)[C@H](N)C[C@@H]2N)[C@H](O)[C@@H](O)[C@@H]1O", "strain": "CIPT 140310054", "result": "10 µg/mL"}
{"compound": "CCCCCN1C(=S)C(=O)c2ccccc21", "strain": "CNCTC D38/92", "result": "32 µM"}
{"compound": "CC1(C)S[C@@H]2[C@H](NC(=O)[C@H](C(=O)[O-])c3ccsc3)C(=O)N2[C@H]1C(=O)[O-].[Na+].[Na+]", "strain": "CIPT 140310023", "result": "50 µg/mL"}
{"compound": "CC[C@H]1OC(=O)[C@H](C)[C@@H](OC2C[C@@](C)(OC)[C@@H](O)[C@H](C)O2)[C@H](C)[C@@H](O[C@@H]2O[C@H](C)C[C@H](N(C)C)[C@H]2O)C(C)(O)C[C@@H](C)/C(=N\\OCCCOc2ccccc2)[C@H](C)[C@@H](O)[C@]1(C)O", "strain": "20066 (clarithromycin-susceptible)", "result": "1.56 µg/mL"}
{"compound": "CN[C@@H]1[C@H](O[C@H]2[C@H](O[C@H]3[C@H](O)[C@@H](O)[C@H](N=C(N)N)[C@@H](O)[C@@H]3N=C(N)N)O[C@@H](C)[C@]2(O)C=O)O[C@@H](CO)[C@H](O)[C@H]1O", "strain": "N-481 (HIV-)", "result": "4 µg/mL"}
{"compound": "Cc1ccc2oc(/C=N/N=C(\\N)c3cnccn3)nc2c1", "result": ">16 µg/mL"}
{"compound": "CCCCCCCCCCCCCCNNC(=O)O[C@H]1[C@H](O[C@@H]2[C@@H](C)[C@H](O[C@H]3C[C@@](C)(OC)[C@@H](OC(C)=O)[C@H](C)O3)[C@@H](C)C(=O)O[C@H](CC)[C@@](C)(O)[C@H](O)[C@@H](C)/C(=N/OCCCC3CCCCC3)[C@H](C)CC2(C)O)O[C@H](C)C[C@@H]1N(C)C", "strain": "20066 (clarithromycin-susceptible)", "result": ">50 µg/mL"}
{"compound": "CC1(C)S[C@@H]2[C@H](NC(=O)C(C(=O)O)c3ccccc3)C(=O)N2[C@H]1C(=O)O", "strain": "CIPT 140310054", "result": "75 µg/mL"}
{"compound": "CC[C@H]1OC(=O)[C@H](C)[C@@H](OC2C[C@@](C)(OC)[C@@H](O)[C@H](C)O2)[C@H](C)[C@@H](O[C@@H]2O[C@H](C)C[C@H](N(C)C)[C@H]2O)C(C)(O)C[C@@H](C)/C(=N\\OCCCOc2ccccc2)[C@H](C)[C@@H](O)[C@]1(C)O", "strain": "20066", "result": "1.56 µg/mL"}
{"compound": "CCC(C)S/C(N)=N/N=C/c1ccncc1", "strain": "CNCTC D38/92", "result": "250 µM"}
{"compound": "CC[C@H](C)C(=O)Oc1ccc([C@H]2O[C@@H]2C)cc1", "result": "10.68 µg/mL"}
{"compound": "N/C(=N\\N=C\\c1cc2ccccc2s1)c1ccccn1", "result": ">16 µg/mL"}
{"compound": "CCn1c(S)c(N=NC(N)=[NH2+])c2ccccc21", "strain": "CNCTC D38/92", "result": "250 µM"}
{"compound": "CC[C@H]1OC(=O)[C@H](C)[C@@H](OC2C[C@@](C)(OC)[C@@H](O)[C@H](C)O2)[C@H](C)[C@@H](O[C@@H]2O[C@H](C)C[C@H](N(C)C)[C@H]2O)C(C)(O)C[C@@H](C)/C(=N\\OCCC2CCCCC2)[C@H](C)[C@@H](O)[C@]1(C)O", "strain": "20066", "result": "6.25 µg/mL"}
{"compound": "CCn1c(S)c(N=NC(N)=O)c2ccccc21", "strain": "CNCTC D38/92", "result": "250 µM"}
{"compound": "CN(C)CC/C=C1/c2ccccc2Sc2ccc(Cl)cc21", "strain": "E 48067", "result": "25 µg/mL"}
{"compound": "CO[C@H]1/C=C/O[C@@]2(C)Oc3c(C)c(O)c4c(O)c(c5c(c4c3C2=O)NC2(CCN(CC(C)C)CC2)N=5)=NC(=O)/C(C)=C\\C=C\\[C@H](C)[C@H](O)[C@@H](C)[C@@H](O)[C@@H](C)[C@H](OC(C)=O)[C@@H]1C", "strain": "1296", "result": "0.5 µg/mL"}
{"compound": "CC[C@H]1OC(=O)[C@H](C)[C@@H](OC2C[C@@](C)(OC)[C@@H](O)[C@H](C)O2)[C@H](C)[C@@H](O[C@@H]2O[C@H](C)C[C@H](N(C)C)[C@H]2O)C(C)(O)C[C@@H](C)/C(=N\\OCCOc2ccccc2)[C@H](C)[C@@H](O)[C@]1(C)O", "strain": "20066 (clarithromycin-susceptible)", "result": "3.13 µg/mL"}
{"compound": "CN(C)CCCN1c2ccccc2Sc2ccc(Cl)cc21", "strain": "R 8588", "result": "25 µg/mL"}
{"compound": "CCCCCCS/C(N)=N/N=C/c1ccc2ccccc2n1", "strain": "CNCT D39/93", "result": "32 µM"}
{"compound": "NNC(=O)c1ccncc1", "strain": "N-919 (HIV-)", "result": "8 µg/mL"}
{"compound": "CCOC(=O)C(=O)N=Nc1c(S)n(CC)c2ccccc12", "strain": "CNCTC D38/92", "result": ">1000 µM"}
{"compound": "CCS/C(N)=N/N=C/c1ccccc1O", "strain": "CNCT D39/93", "result": "125 µM"}
{"compound": "CC[C@H]1OC(=O)[C@H](C)[C@@H](OC2C[C@@](C)(OC)[C@@H](O)[C@H](C)O2)[C@H](C)[C@@H](O[C@@H]2O[C@H](C)C[C@H](N(C)C)[C@H]2O)C(C)(O)C[C@@H](C)/C(=N\\OCCC2CCCCC2)[C@H](C)[C@@H](O)[C@]1(C)O", "strain": "20066 (clarithromycin-susceptible)", "result": "6.25 µg/mL"}
{"compound": "CC[C@H]1OC(=O)[C@H](C)[C@@H](O[C@H]2C[C@@](C)(OC)[C@@H](O)[C@H](C)O2)[C@H](C)[C@@H](O[C@@H]2O[C@H](C)C[C@H](N(C)C)[C@H]2O)[C@](C)(O)C[C@@H](C)/C(=N\\OC)[C@H](C)[C@@H](O)[C@]1(C)O", "strain": "20066", "result": "12.5 µg/mL"}
{"compound": "CC[C@H]1OC(=O)[C@H](C)[C@@H](OC(=O)C(C)C)[C@H](C)[C@@H](O[C@@H]2O[C@H](C)C[C@H](N(C)C)[C@H]2O)C(C)(O)C[C@@H](C)/C(=N\\OCCCOc2ccccc2)[C@H](C)[C@@H](O)[C@]1(C)O", "strain": "20066 (clarithromycin-susceptible)", "result": "3.13 µg/mL"}
{"compound": "N/C(=N\\N=C\\c1cc2ccccc2s1)c1cnccn1", "result": ">16 µg/mL"}
{"compound": "CC[C@H]1OC(=O)[C@H](C)[C@@H](O[C@H]2C[C@@](C)(OC)[C@@H](OC(C)=O)[C@H](C)O2)[C@H](C)[C@@H](O[C@@H]2O[C@H](C)C[C@H](N(C)C)[C@H]2OC(=O)NNCc2ccccc2OC)C(C)(O)C[C@@H](C)/C(=N\\OCCCC2CCCCC2)[C@H](C)[C@@H](O)[C@]1(C)O", "strain": "20066 (clarithromycin-susceptible)", "result": "0.39 µg/mL"}
{"compound": "CO[C@H]1/C=C/O[C@@]2(C)Oc3c(C)c(O)c4c(O)c(c5c(c4c3C2=O)NC2(CCN(CC(C)C)CC2)N=5)=NC(=O)/C(C)=C\\C=C\\[C@H](C)[C@H](O)[C@@H](C)[C@@H](O)[C@@H](C)[C@H](OC(C)=O)[C@@H]1C", "strain": "N-486 (HIV-)", "result": "0.4 µg/mL"}
{"compound": "CCO/N=C1\\[C@H](C)CC(C)(O)[C@H](O[C@@H]2O[C@H](C)C[C@H](N(C)C)[C@H]2O)[C@@H](C)[C@H](OC2C[C@@](C)(OC)[C@@H](O)[C@H](C)O2)[C@@H](C)C(=O)O[C@H](CC)[C@@](C)(O)[C@H](O)[C@H]1C", "strain": "20066", "result": "6.25 µg/mL"}
{"compound": "CC[C@H]1OC(=O)[C@H](C)[C@@H](O[C@H]2C[C@@](C)(OC)[C@@H](OC(C)=O)[C@H](C)O2)[C@H](C)[C@@H](O[C@@H]2O[C@H](C)C[C@H](N(C)C)[C@H]2OC(=O)NNCCCCCc2ccccc2)C(C)(O)C[C@@H](C)/C(=N\\OCCCC2CCCCC2)[C@H](C)[C@@H](O)[C@]1(C)O", "strain": "20066 (clarithromycin-susceptible)", "result": "3.13 µg/mL"}
{"compound": "CN[C@@H]1[C@H](O[C@H]2[C@H](O[C@H]3[C@H](O)[C@@H](O)[C@H](N=C(N)N)[C@@H](O)[C@@H]3N=C(N)N)O[C@@H](C)[C@]2(O)C=O)O[C@@H](CO)[C@H](O)[C@H]1O", "strain": "CIPT 140310019", "result": ">50 µg/mL"}

For reference, 6 entries again:

compound | strain | result
Cc1ccc2oc(/C=N/N=C(\N)c3cnccn3)nc2c1 |  | >16 µg/mL
CC1(C)S[C@@H]2[C@H](NC(=O)[C@H](C(=O)[O-])c3ccsc3)C(=O)N2[C@H]1C(=O)[O-].[Na+].[Na+] | CIPT 140310023 | 50 µg/mL
CCOC(=O)C(=O)N=Nc1c(S)n(CC)c2ccccc12 | CNCTC D38/92 | >1000 µM
CN[C@@H]1[C@H](O[C@H]2[C@H](O[C@H]3[C@H](O)[C@@H](O)[C@H](N=C(N)N)[C@@H](O)[C@@H]3N=C(N)N)O[C@@H](C)[C@]2(O)C=O)O[C@@H](CO)[C@H](O)[C@H]1O | N-481 (HIV-) | 4 µg/mL
CCn1c(S)c(N=NC(N)=[NH2+])c2ccccc21 | CNCTC D38/92 | 250 µM
CCCCCCCCCCCCCCCCO/N=C1\[C@H](C)CC(C)(O)[C@H](O[C@@H]2O[C@H](C)C[C@H](N(C)C)[C@H]2O)[C@@H](C)[C@H](OC2C[C@@](C)(OC)[C@@H](O)[C@H](C)O2)[C@@H](C)C(=O)O[C@H](CC)[C@@](C)(O)[C@H](O)[C@H]1C | 20066 | >50 µg/mL